Data as given in PubChem BioAssay AID624099 (ICCB-Longwood, 2012).
Screen: 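Host factors E2 relies on to silence an HPV18 LCR reporter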 (primary screen). Cell system: human C33A cervical carcinoma cells (HPV-negative) stably expressing BPV1 E2 and an HPV18 LCR luciferase reporter. Reagent: siRNA pool against human genes, 40 nM. Timing: 72 h. Measured: 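Per-well luciferase luminescence, z-scored on each plate against the plate mean and SD with control wells left out, then averaged across three replicate plates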. Direction: mean z-score and z-score: higher = stronger reporter signal, weaker E2 silencing. Active means: 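Mean z ≥ 2 together with z ≥ 2 in two or more of the three replicates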.
The deposit covers about 21,000 reagents; below is a part drawn at random. Of all reagents, 497 (2.4%) are marked active. 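Higher z means weaker E2 silencing; only reporter increases were scored, and knock-downs that hurt cell survival may mask genuine repressor factors.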 Reagents against one gene are numbered here.

| gene knocked down | reagent no. | mean z-score | z-score, replicate A | z-score, replicate B | z-score, replicate C | Call |
| --- | --- | --- | --- | --- | --- | --- |
| SF3A1 | 1 | -0.8 | -0.84 | -0.78 | -0.79 | inactive |
| PTRHD1 | 1 | -0.13 | -0.42 | 0.03 | 0 | inactive |
| PRMT9 | 1 | -0.95 | -0.75 | -0.97 | -1.12 | inactive |
| ZCCHC3 | 1 | -0.99 | -1 | -0.88 | -1.1 | inactive |
| TMEM31 | 1 | -0.4 | -0.09 | -0.68 | -0.42 | inactive |
| NAV3 | 1 | 0.59 | 0.39 | 0.72 | 0.64 | inactive |
| KDM6A | 1 | 0.63 | 0.51 | 0.7 | 0.68 | inactive |
| ZEB1 | 1 | -0.37 | -0.27 | -0.45 | -0.38 | inactive |
| MRPL30 | 1 | 1.12 | 1.06 | 0.99 | 1.3 | inactive |
| TRIM13 | 1 | 0.92 | 0.55 | 1.14 | 1.08 | inactive |
| ITGB1BP1 | 1 | -1.56 | -1.01 | -2.09 | -1.58 | inactive |
| GRHL2 | 1 | -0.21 | -0.45 | 0.05 | -0.24 | inactive |
| KDM5C | 1 | 7.83 | 7.41 | 7.99 | 8.09 | active |
| BAGE2 | 1 | -0.12 | -0.52 | -0.2 | 0.35 | inactive |
| RPP38 | 1 | -0.99 | -1.15 | -1.07 | -0.74 | inactive |
| PABPC1P4 | 1 | -0.14 | -0.3 | -0.16 | 0.05 | inactive |
| PMF1 | 1 | -1.12 | -1.44 | -0.97 | -0.94 | inactive |
| SGTB | 1 | -1.4 | -1.45 | -1.55 | -1.2 | inactive |
| OR4B1 | 1 | 0.33 | 0.7 | -0.1 | 0.39 | inactive |
| OR56A5 | 1 | 0.21 | 0.17 | 0.18 | 0.28 | inactive |
| NCBP2 | 1 | 0.56 | 0.42 | 0.81 | 0.45 | inactive |
| PPIAP8 | 1 | 0.43 | 0.47 | 0.48 | 0.35 | inactive |
| SLC6A12 | 1 | 0.46 | 0.33 | 0.5 | 0.54 | inactive |
| CAMK1G | 1 | -0.26 | -0.69 | 0.05 | -0.13 | inactive |
| ABCB8 | 1 | 0.31 | -0.08 | 0.33 | 0.67 | inactive |
| SUPT3H | 1 | -0.24 | -0.43 | -0.44 | 0.15 | inactive |
| MAMLD1 | 1 | 1.39 | 1.01 | 1.26 | 1.89 | inactive |
| GINS1 | 1 | 0.1 | 0.19 | 0.13 | -0.02 | inactive |
| LINC00207 | 1 | 0.16 | 0.15 | 0.01 | 0.32 | inactive |
| EMB | 1 | 1.68 | 1.64 | 1.54 | 1.87 | inactive |
| CHRM2 | 1 | 0.18 | 0.22 | 0.05 | 0.27 | inactive |
| PIP4P2 | 1 | 0.01 | 0 | 0.46 | -0.42 | inactive |
| ELMOD2 | 1 | -0.9 | -1.06 | -0.88 | -0.76 | inactive |
| OTUD3 | 1 | 0.08 | 0.03 | -0.07 | 0.28 | inactive |
| OTUD3 | 2 | -1.02 | -1.13 | -1.06 | -0.89 | inactive |
| INMT | 1 | -1.52 | -1.68 | -1.53 | -1.33 | inactive |
| NENF | 1 | 3.39 | 3.56 | 3.72 | 2.9 | active |
| CCDC82 | 1 | -0.24 | 0.08 | -0.27 | -0.53 | inactive |
| MFSD6 | 1 | 0.33 | -0.08 | 0.55 | 0.51 | inactive |
| PRAMEF2 | 1 | 0.75 | 0.84 | 0.61 | 0.8 | inactive |
| C1QL4 | 1 | -0.47 | -0.24 | -0.32 | -0.83 | inactive |
| LINC00301 | 1 | -0.28 | -0.25 | -0.11 | -0.47 | inactive |
| SERPINB12 | 1 | -0.72 | -0.59 | -0.71 | -0.85 | inactive |
| PHOX2A | 1 | 0.22 | 0.41 | 0.29 | -0.03 | inactive |
| NUDT5 | 1 | 0.31 | 0.49 | 0.13 | 0.32 | inactive |
| MACROH2A2 | 1 | -1.4 | -1.49 | -1.38 | -1.33 | inactive |
| ARFGAP2 | 1 | 0.13 | 0.32 | 0.18 | -0.1 | inactive |
| DRC9 | 1 | -0.8 | -0.83 | -0.96 | -0.62 | inactive |
| ESX1 | 1 | 0.75 | 0.75 | 0.73 | 0.78 | inactive |
| PITHD1 | 1 | 1.21 | 1.28 | 1.08 | 1.26 | inactive |
| BLTP2 | 1 | 0.38 | 0.37 | 0.28 | 0.48 | inactive |
| HSFY1 | 1 | -0.31 | -0.04 | -0.51 | -0.38 | inactive |
| PCED1A | 1 | -1.06 | -1.32 | -1.35 | -0.51 | inactive |
| DCST1 | 1 | 1.37 | 0.17 | – | 0.46 | inactive |
| LNP1 | 1 | -0.74 | -0.83 | -0.68 | -0.69 | inactive |
| LOC439911 (retired record) | 1 | -0.31 | – | -0.37 | -0.25 | inactive |
| SHOX | 1 | 0.05 | -0.24 | 0.14 | 0.25 | inactive |
| ZNF444 | 1 | 0.43 | 0.32 | 1.18 | -0.21 | inactive |
| MAP1A | 1 | -1.28 | -1.44 | -1.73 | -0.68 | inactive |
| UTP3 | 1 | 1.65 | 1.7 | 1.52 | 1.72 | inactive |
| TMEM233 | 1 | -0.24 | -0.21 | -0.16 | -0.36 | inactive |
| LOC399919 (retired record) | 1 | -0.53 | -0.56 | -0.45 | -0.56 | inactive |
| LRP1 | 1 | 2.6 | 2.46 | 2.25 | 3.1 | active |
| HNRNPDL | 1 | 0.93 | 0.94 | 1 | 0.85 | inactive |
| LMNA | 1 | 0.14 | 0.39 | 0.02 | 0.01 | inactive |
| FOXP1 | 1 | -1.95 | -1.88 | -2.06 | -1.91 | inactive |
| BRDT | 1 | 0.34 | 0.28 | 0.35 | 0.4 | inactive |
| AGTPBP1 | 1 | 0.66 | 0.67 | 0.78 | 0.54 | inactive |
| SPATA6 | 1 | -0.6 | -0.75 | -0.36 | -0.68 | inactive |
| CEP97 | 1 | -0.22 | -0.36 | -0.1 | -0.2 | inactive |
| ARMC1 | 1 | -0.45 | -0.31 | -0.29 | -0.74 | inactive |
| PTCRA | 1 | 1.24 | 1.26 | 1.1 | 1.35 | inactive |
| LOC401020 (retired record) | 1 | 0.3 | 0.89 | 0.04 | -0.03 | inactive |
